Measured values published in paper PMC6127852 (Journal of Enzyme Inhibition and Medicinal Chemistry, 2018).

Assays:
polyA-polyU = experiment: UV–Vis titration with polyA-polyU (Scatchard); format: binding; details: for n, polyA-polyU: Scatchard, column head empty; for n, polyA-polyU (n = fix): footnote d: n = fix
Description: (§1) Polynucleotides were purchased as follows: polyG–polyC, polyA–polyU (Sigma-Aldrich, St. Louis, MO), calf thymus ctDNA (Aldrich). Polynucleotides were dissolved in PBS buffer, I = 0.05 mol dm^−3, pH 7.0. The calf thymus ctDNA was additionally sonicated and filtered through a […] filter. The polynucleotide concentration was spectroscopically determined as the concentration of nucleobases.
(§2) All UV–Vis absorbance measurements were conducted on a Perkin Elmer Lambda 25 spectrophotometer (Perkin Elmer, Waltham, MA). A quartz cell with a 1 cm path length was used for all absorbance studies. Compound stock solutions were 1 mM. The DNA/RNA at increasing ratios was then titrated into the compound buffer solution (1.48 × 10^−5 mol dm^−3) and the corresponding absorption spectra were recorded under the same conditions. All data were graphed and analysed using Origin software version 9.0 (OriginLab Corporation, Northampton, MA). The stability constants (Ks) and [bound compound]/[polynucleotide phosphate] ratios (n) were calculated according to the Scatchard Equation[63] ^, [64]. Values for Ks and n given in Table 1 all have satisfying correlation coefficients (0.99).
(§3) The binding constants logKs and the density of the binding sites n were calculated using Scatchard plot analysis. In addition, the binding constants Ks for compounds 8b and 8e were calculated only for titration data taken at the r ≥ 0.1, because below that ratio changes in absorption maxima were too small for accurate calculation (ΔA ≤ 0.04) (Table 1). The binding constants Ks and ratios n obtained by processing UV–Vis titration data using the Scatchard equation are summarised in Table 1.

calf thymus ctDNA = experiment: UV–Vis titration with ctDNA (Scatchard); format: binding; details: for n ([compound]/[polynucleotide phosphate]), ctDNA: Scatchard, accuracy of n ± 10–30%; for n, ctDNA (range r ≥ 0.1): footnote f: mixed binding mode, calculated in range r ≥ 0.1
Description: as §1, §2, §3

polyC-polyG = experiment: UV–Vis titration with polyC-polyG (Scatchard); format: binding; details: for n, polyC-polyG (n = fix): footnote d: n = fix; for n, polyC-polyG: Scatchard
Description: as §1, §2, §3

ctDNA = experiment: Thermal melting (ΔTm) of ctDNA; format: binding, calf; details: from non-linear dependence of ΔTm on r; polynucleotide not given
Description: T m experiments were conducted with a Perkin Elmer Lambda 25 spectrophotometer in 1 cm quartz cuvettes. The absorbance of the DNA/RNA-compound complex was monitored at 260 nm as a function of temperature. The absorbance of the ligands was subtracted from every curve, and the absorbance scale was normalised. The ΔT m values were calculated by subtracting T m of the free nucleic acid from T m of the complex. Every reported ΔT m value was the average of at least two measurements. The error of ΔT m is ±0.5 °C. All data were graphed and analysed using Origin software version 9.0.
Denaturation experiments were carried out at different amounts of the compounds (r = 0.1, 0.3, 0.5, and 0.7 eq; r = [compound]/[polynucleotide]) with ctDNA and polyA-polyU.

SMILES	n, polyA-polyU (polyA-polyU)	n ([compound]/[polynucleotide phosphate]), ctDNA (calf thymus ctDNA)	n, polyC-polyG (n = fix) (polyC-polyG)	n, polyA-polyU (n = fix) (polyA-polyU)	n, polyC-polyG (polyC-polyG)	n, ctDNA (range r ≥ 0.1) (calf thymus ctDNA)	saturation of binding sites at ratio r (ctDNA)
CC(C)NC(=N)c1ccc2[nH]c(-c3ccc(OCc4cn(Cc5ccccc5)nn4)cc3)nc2c1 [Compound 8d]	0.30	0.47	0.40 ^d				
COc1ccc(-n2cc(COc3ccc(-c4nc5cc(C6=NCCN6)ccc5[nH]4)cc3)nn2)cc1.Cl.Cl [Compound 9b, 5–(4,5-Dihydro-1H-imidazol-2-yl)-2–(4-((1–(4-methoxyphenyl)-1H-1,2,3-triazol-4-yl)methoxy)phenyl)-1H-benz[d]imidazole dihydrochloride]				0.30 ^d			
COc1ccc(-n2cc(COc3ccc(-c4nc5cc(C(=N)N)ccc5[nH]4)cc3)nn2)cc1.Cl.Cl [Compound 7b, 2–(4-((1–(4-Methoxyphenyl)-1H-1,2,3-triazol-4-yl)methoxy)phenyl)-1H-benz[d]imidazole-5-carboximidamide dihydrochloride]					0.73		
Cl.Cl.N=C(N)c1ccc2[nH]c(-c3ccc(OCc4cn(CSc5ccccc5)nn4)cc3)nc2c1 [Compound 7e, 2–(4-((1-((Phenylthio)methyl)-1H-1,2,3-triazol-4-yl)methoxy)phenyl)-1H-benz[d]imidazole-5-carboximidamide dihydrochloride]	0.29	0.61			0.69		
Cl.Cl.Clc1ccccc1-n1cc(COc2ccc(-c3nc4cc(C5=NCCN5)ccc4[nH]3)cc2)nn1 [Compound 9c, 5–(4,5-Dihydro-1H-imidazol-2-yl)-2–(4-((1–(2-chlorophenyl)-1H-1,2,3-triazol-4-yl)methoxy)phenyl)-1H-benz[d]imidazole dihydrochloride]	0.29	0.35			0.36		
Cl.Cl.N=C(N)c1ccc2[nH]c(-c3ccc(OCc4cn(-c5ccccc5Cl)nn4)cc3)nc2c1 [Compound 7c, 2–(4-((1–(2-Chlorophenyl)-1H-1,2,3-triazol-4-yl)methoxy)phenyl)-1H-benz[d]imidazole-5-carboximidamide dihydrochloride]	0.18	0.58					
COc1ccc(-n2cc(COc3ccc(-c4nc5cc(C(=N)NC(C)C)ccc5[nH]4)cc3)nn2)cc1.Cl.Cl [Compound 8b, N-isopropyl-2–(4-((1–(4-methoxyphenyl)-1H-1,2,3-triazol-4-yl)methoxy)phenyl)-1H-benz[d]imidazole-5-carboximidamide dihydrochloride]	0.23				0.39	0.62 ^f	
N=C(N)c1ccc2[nH]c(-c3ccc(OCc4cn(Cc5ccccc5)nn4)cc3)nc2c1 [Compound 7d]	0.11	0.59			0.36		
Cl.Cl.c1ccc(SCn2cc(COc3ccc(-c4nc5cc(C6=NCCN6)ccc5[nH]4)cc3)nn2)cc1 [Compound 9e, 5–(4,5-Dihydro-1H-imidazol-2-yl)-2–(4-((1-(phenylthiomethyl)-1H-1,2,3-triazol-4-yl)methoxy)phenyl)-1H-benz[d]imidazole dihydrochloride]	0.26	0.12	0.4 ^d				
CC(C)NC(=N)c1ccc2[nH]c(-c3ccc(OCc4cn(-c5ccccc5Cl)nn4)cc3)nc2c1.Cl.Cl [Compound 8c, N-isopropyl-2–(4-((1–(2-chlorophenyl)-1H-1,2,3-triazol-4-yl)methoxy)phenyl)-1H-benz[d]imidazole-5-carboximidamide dihydrochloride]	0.19	0.69			0.36		
N=C(N)c1ccc2[nH]c(-c3ccc(OCc4cn(-c5ccccc5)nn4)cc3)nc2c1 [Compound 7a]	0.31	0.27	0.40 ^d				0.3–0.5
c1ccc(Cn2cc(COc3ccc(-c4nc5cc(C6=NCCN6)ccc5[nH]4)cc3)nn2)cc1 [Compound 9d]		0.75		0.30 ^d	0.41		0.5–0.7
CC(C)NC(=N)c1ccc2[nH]c(-c3ccc(OCc4cn(-c5ccccc5)nn4)cc3)nc2c1 [Compound 8a]	0.24	0.64	0.4 ^d				
c1ccc(-n2cc(COc3ccc(-c4nc5cc(C6=NCCN6)ccc5[nH]4)cc3)nn2)cc1 [Compound 9a]			0.40 ^d				
CC(C)NC(=N)c1ccc2[nH]c(-c3ccc(OCc4cn(CSc5ccccc5)nn4)cc3)nc2c1.Cl.Cl [Compound 8e, N-isopropyl-2–(4-((1-(phenylthiomethyl)-1H-1,2,3-triazol-4-yl)methoxy)phenyl)-1H-benz[d]imidazole-5-carboximidamide dihydrochloride]	0.30				0.28	0.36 ^f	
